These results are taken from PubChem BioAssay AID552 (SRMLSC, 2006).

Structures are written as SMILES. The entries are a selection whose mix differs from that of the whole data set. Active and inactive are the calls of the source. Cut-off read from the data, not from the text of the source: active = inhibition above about 40%; inactive = the rest.

This assay in a line: antibacterial activity on E. coli BW25113 – strain BW25113 wild type, absorbance readout, primary screen (AID 552).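 Note: bacteria exposed to compound for 20 hours at 37 °C.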 To be noted: E. coli BW25113 growth inhibition, OD600; at 10 µM; stronger effect = higher value. The method in brief:
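Material: bacterial strain in a whole-cell growth screen; Amount: inoculum from a 1:1000 dilution of a 1.5 h subculture; Buffer or medium: LB plus kanamycin 50 µg/mL; Dosing: one dose, 10 µM final; Times: compound exposure of 20 h at 37 °C; Measured by: absorbance at 615 nm as a measure of bacterial growth.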
Regarding `O=C(OC1CN2CCC1CC2)C1c2ccccc2Oc2ccccc21` (configuration not stated), the inhibition (in general, the relative decrease from the control value, in per cent) is inactive: -10.2%.

In the case of `Fc1ccccc1NC1CCN(Cc2ccccc2)CC1`, the inhibition is inactive: 3.06%.
